Measured values from paper PMC7182600 (Influenza and Other Respiratory Viruses, 2020).

Tested on: NA of rPhuket3073/Yamagata‐E117A
Type: biochemical, influenza B virus

## CCC(CC)O[C@@H]1C=C(C(=O)O)C[C@H](N)[C@H]1NC(C)=O [Oseltamivir carboxylate]
  fold differences in IC50: 38 075.9 ± 7365.0 (586.6) fold
